Compound potency records, mixed from different reports. Data source: NIAID ChemDB in PubChem.

Common to all: growth or infection tests; agent: Mycobacterium avium; measure: MIC

Blank or dashed fields: not listed here.

smiles	setting	strain	result
Cc1ccc2oc(=O)n(-c3ccccc3)c(=O)c2c1		CNCTC MY330/88	32 µM
O=c1oc2ccc(Cl)cc2c(=S)n1-c1cccc(F)c1	14 d	MY330/88	32 µM
CCCCCOc1cccc(NC(=O)OCC[NH+]2CCCC2)c1		MY330/88	62.5 µM
O=c1oc2ccc(F)cc2c(=O)n1-c1ccc(F)cc1		CNCTC MY330/88	31 µM
CC(C)N=c1cc2n(-c3ccc(Cl)cc3)c3ccccc3nc-2cc1Nc1ccc(Cl)cc1		ATCC	1 µg/mL
CCCCCOc1cccc(NC(=O)OCCN(C)C)c1		MY330/88	32 µM
COc1ccc2oc(=O)n(-c3ccc(C(F)(F)F)cc3)c(=S)c2c1	14 d	MY330/88	125 µM
CCCCCCCCCOc1ccccc1NC(=O)OCCN(C)C		MY330/88	16 µM
Cc1ccc2oc(=S)n(-c3ccc(F)cc3)c(=S)c2c1	21 d	MY330/88	4 µM
CCOC(=O)c1ccc(-n2c(=O)oc3ccc(Br)cc3c2=O)cc1		CNCTC MY330/88	32 µM
CCCCCCCCCOc1ccccc1NC(=O)OCCN1CCOCC1		MY330/88	32 µM
COc1ccc2oc(=O)n(-c3ccc(Br)cc3)c(=S)c2c1	21 d	MY330/88	62.5 µM
O=c1oc2ccc(Cl)cc2c(=O)n1-c1ccccc1		CNCTC MY330/88	32 µM
S=c1oc2ccc(Br)cc2c(=S)n1-c1ccc(Cl)cc1	14 d	MY330/88	32 µM
Cc1ccc2c(=O)n(-c3cccc(Cl)c3)c(=O)oc2c1		CNCTC MY330/88	31 µM
CCCCCCOc1ccccc1NC(=O)OCC[NH+]1CCCC1		MY330/88	32 µM

Repeating the final 2 entries:

smiles | setting | strain | result
Cc1ccc2c(=O)n(-c3cccc(Cl)c3)c(=O)oc2c1 |  | CNCTC MY330/88 | 31 µM
CCCCCCOc1ccccc1NC(=O)OCC[NH+]1CCCC1 |  | MY330/88 | 32 µM

Lines come from different laboratories, so protocols vary.